Compound potency records, mixed from different reports. Data source: NIAID ChemDB in PubChem.

Shared fields: enzyme or target tests; organism: HIV-1; target: Reverse transcriptase; method: RT activity; measure: IC50

An empty or dashed field is not shown. Neighbouring rows are from separate reports. ICn: concentration for n% inhibition.

| SMILES | strain | mutations | result |
|---|---|---|---|
| COC1CCC(OC2CC(C3(C)CCC4(CC(O)C(C)C(C(C)/C=C(\C)C(=O)C(C)CC(C)C(=O)O)O4)O3)OC3(OC(C4OC(O)(CO)C(C)CC4C)CC3C)C2C)OC1C | - | - | >100 µg/mL |
| CC[C@@]1(c2ccccc2)Oc2cccnc2-n2cccc2C1=O | - | 1(RT) | >2 µM |
| C[C@H](CC[C@H](O)C(C)(O)CO)[C@H]1CC[C@@]2(C)C3=CC[C@H]4C(C)(C)C(=O)CC[C@]4(C)C3=CC[C@]12C | - | - | >250 µM |
| Cc1cc(Cl)c2c(c1O)C(=O)C=CC2=O | - | - | 12.5 µg/mL |
| CC(=O)c1ccc(C)cc1NC(C(N)=O)c1c(Cl)cccc1Cl | IIIB | - | 1 µM |
| CCNc1cccnc1N1CCN(C(=O)c2cc3cc4c(cc3[nH]2)OCO4)CC1 | IIIB | - | 0.44 µM |
| NC(=O)c1[nH]c2ccc(Cl)cc2c1Sc1ccccc1 | - | - | 0.01 µM |
| CCOc1ccccc1N1CCN(C(=O)c2cc3ccccc3[nH]2)CC1 | IIIB | - | 2 µM |
| Nc1ncnc2c1ncn2OCCOCP(=O)(O)O | - | - | 1.5 µM |
| Cc1cn([C@@H]2O[C@H](CO[Si](C)(C)C(C)(C)C)C3(OS(=O)(=O)C=C3N)[C@H]2O[Si](C)(C)C(C)(C)C)c(=O)n(C)c1=O | IIIB | RT-P225H | 2.2 µM |
| CC(C)c1c(COC(N)=O)cn(Cc2ccncc2)c1Sc1cc(Cl)cc(Cl)c1 | - | - | 0.7 µM |
| CC[C@@]1([C@@H]2O[C@@H]([C@H]3O[C@@](O)(CO)[C@H](C)C[C@@H]3C)C[C@@H]2C)CC[C@H]([C@]2(C)CC[C@]3(C[C@H](O)[C@@H](C)[C@@H]([C@@H](C)[C@@H](OC)[C@H](C)C(=O)O)O3)O2)O1 | - | - | >100 µg/mL |
| CO[C@H]1/C=C/O[C@@]2(C)Oc3c(C)c(O)c4c(c3C2=O)C(=O)C(SCCOC(=O)CCC(=O)OC[C@H]2O[C@@H](n3cc(C)c(=O)[nH]c3=O)C[C@@H]2N=[N+]=[N-])=C(NC(=O)/C(C)=C\C=C\[C@H](C)[C@H](O)[C@@H](C)[C@@H](O)[C@@H](C)[C@H](OC(C)=O)[C@@H]1C)C4=O | IIIB | - | 145 µM |
| Nc1nc2c(ncn2[C@H]2C=C[C@@H](COP(=O)(O)OP(=O)(O)OP(=O)(O)O)C2)c(=O)[nH]1 | - | - | 0.05 µM |
| O=C1OC[C@H]2[C@H](c3ccc(O)c(O)c3)c3cc(O)c(O)cc3C[C@H]12 | HXB2 | - | 200 µM |
| C=C1CC23CCC4[C@@](C)(CCC[C@@]4(C)C(=O)O)C2CC[C@H]1C3 | - | - | 34.1 µg/mL |
| CC(C)[C@@H](C)/C=C/[C@@H](C)[C@H]1CC[C@H]2C3=CC=C4C[C@@H](O)CC[C@]4(C)[C@H]3CC[C@]12C | - | - | >250 µM |
| Cc1cc(O)c2c(c1)C(=O)C=CC2=O | - | - | 6 µg/mL |
| Cc1cc(-c2ccc(N=Nc3ccc4c(S(=O)(=O)O)cc(S(=O)(=O)O)c(N)c4c3O)c(C)c2)ccc1N=Nc1ccc2c(S(=O)(=O)O)cc(S(=O)(=O)O)c(N)c2c1O | RF | - | 37.2 µM |
| C[C@H](CCC=C(CO)CO)[C@H]1CC[C@@]2(C)C3=CC[C@H]4C(C)(C)C(=O)CC[C@]4(C)C3=CC[C@]12C | - | - | >250 µM |
| CC(C)=CCN(C)C(C)Cn1c(=S)[nH]c2ccccc21 | - | - | >100 µg/mL |
| CO[C@H]1/C=C/O[C@@]2(C)Oc3c(C)c(O)c4c(c3C2=O)C(=O)C(SCCOC(=O)CCC(=O)OC[C@H]2O[C@@H](n3cc(C)c(=O)[nH]c3=O)CC2O)=C(NC(=O)/C(C)=C\C=C\[C@H](C)[C@H](O)[C@@H](C)[C@@H](O)[C@@H](C)[C@H](OC(C)=O)[C@@H]1C)C4=O | IIIB | - | ~300 µM |
| CCCCCCCCCCCCCC(=O)OC[C@H](COP(=O)(O)OC[C@H]1O[C@@H](n2cc(C)c(=O)[nH]c2=O)C[C@@H]1N=[N+]=[N-])OC(=O)CCCCCCCCCCCCC | LAV | - | >100 µM |
| Nc1ccnc2c1ccn2[C@H]1CC[C@@H](COP(=O)(O)OP(=O)(O)OP(=O)(O)O)O1 | - | - | >1000 µM |
| Cc1cc2c(c(O)c1-c1c(C)cc(O)c3c1C(=O)C=CC3=O)C(=O)C=CC2=O | - | - | >100 µg/mL |
| COc1ccccc1N1CCN(C(=O)c2cc3ccccc3[nH]2)CC1 | IIIB | - | 65 µM |
| CO[C@H]1/C=C/O[C@@]2(C)Oc3c(C)c(O)c4c(c3C2=O)C(=O)C(SCCCCCCCOC(=O)CCCC(=O)OC[C@H]2O[C@@H](n3cc(C)c(=O)[nH]c3=O)C[C@@H]2N=[N+]=[N-])=C(NC(=O)/C(C)=C\C=C\[C@H](C)[C@H](O)[C@@H](C)[C@@H](O)[C@@H](C)[C@H](OC(C)=O)[C@@H]1C)C4=O | IIIB | - | ~300 µM |
| O=S(=O)(O)c1cc(NS(=O)(=O)c2ccc(-c3ccc(S(=O)(=O)Nc4cc(S(=O)(=O)O)c5cccc(S(=O)(=O)O)c5c4)cc3)cc2)cc2c(S(=O)(=O)O)cccc12 | - | - | 6.8 µM |
| Cc1cn([C@H]2C[C@H](N=[N+]=[N-])[C@@H](COP(=O)(O)OP(=O)(O)CP(=O)(O)O)O2)c(=O)[nH]c1=O | - | - | 6.95 µM |
| O=C(OCC1OC(OCCc2ccccc2)C(O)C(O)C1O)c1cc(O)c(O)c(O)c1 | - | - | 50 µg/mL |
| O=c1[nH]cnc2c1ncn2[C@H]1CC[C@@H](CO)O1 | WT | - | 0.2 µM |
| CCc1c(Sc2ccccn2)n(COCc2ccccc2)c(=O)[nH]c1=O | RT-WT | - | 0.1 µM |
| Oc1cccc(-c2c3nc(c(-c4cccc(O)c4)c4ccc([nH]4)c(-c4cccc(O)c4)c4nc(c(-c5cccc(O)c5)c5ccc2[nH]5)C=C4)C=C3)c1 | - | - | 5 µM |
| Cc1cnnn1[C@H]1C[C@H](n2ccc(=O)[nH]c2=O)O[C@@H]1COP(=O)(O)OP(=O)(O)OP(=O)(O)O | LAV | - | >50 µM |
| CCc1nc2ccccn2c1C(=O)c1ccco1 | - | - | 200 µM |
| Cc1cn([C@H]2CC[C@@H](OCP(=O)(O)OP(=O)(O)OP(=O)(O)O)C2)c(=O)[nH]c1=O | - | - | 0.11 µM |
| CCCN(C)c1nc([C@@H](C)c2c(F)cccc2F)c(C)c(=O)[nH]1 | - | K103N | >20 µM |
| CN1c2ccccc2N2C(=O)CN(CCN3CCCCC3)C(=O)C2c2cccn21 | IIIB | - | 100 µM |
| Cc1cc(O)c2c(c1)C(=O)C(c1c(C)cc3c(c1O)C(=O)C=CC3=O)=CC2=O | - | - | >100 µg/mL |
| CC(C)CC(c1c(O)c(C=O)c(O)c(C=O)c1O)C1(C)CCC2C1=CC(C(C)(C)O)CCC2C | - | - | 12 µM |
| C[C@H](CC(=O)C[C@@H](C)[C@H]1CC(=O)[C@@]2(C)C3=C(C(=O)C[C@]12C)[C@@]1(C)CC[C@H](O)C(C)(C)[C@@H]1C[C@@H]3O)C(=O)O | - | - | >250 µM |
| Nc1cc(O)c2cc(N=Nc3ccc(N=Nc4ccc(N=Nc5ccc6cc(S(=O)(=O)O)cc(S(=O)(=O)O)c6c5)c5ccccc45)c4cc(S(=O)(=O)O)ccc34)c(S(=O)(=O)O)cc2c1 | RF | - | 5.6 µM |
| Cc1cc(O)c2c(c1Br)C(=O)C=CC2=O | - | - | 48 µg/mL |
| COC1CCC(OC2CC(C)(C3CCC(C4OC(C)(O)C(C)CC4C)O3)OC2C2(C)CC(C)C3(OC(CC4OC(O)(C(C)C(=O)O)C(C)C(OC)C4OC)CC(OC)C3C)O2)OC1C | - | - | >100 µg/mL |
| COc1cc(-c2ccc(N=Nc3c(S(=O)(=O)[O-])cc4cc(S(=O)(=O)[O-])cc(N)c4c3O)c(OC)c2)ccc1N=Nc1c(S(=O)(=O)[O-])cc2cc(S(=O)(=O)[O-])cc(N)c2c1O.[Na+].[Na+].[Na+].[Na+] | RF | - | 1.1 µM |
| CCc1c([Se]c2ccccn2)n(COCc2ccccc2)c(=O)[nH]c1=O | - | RT-T181C | 6.8 µM |
| O=c1c(O)c(-c2ccc(O)c(O)c2)oc2cc(O)cc(O)c12 | - | - | 100 µg/mL |
| Cc1cc(-c2ccc(N=Nc3c(S(=O)(=O)O)cc4cc(S(=O)(=O)O)cc(N)c4c3O)c(C)c2)ccc1N=Nc1c(S(=O)(=O)O)cc2cc(S(=O)(=O)O)cc(N)c2c1O | RF | - | 1.3 µM |

Repeating the first 6 entries:

SMILES	strain	mutations	result
COC1CCC(OC2CC(C3(C)CCC4(CC(O)C(C)C(C(C)/C=C(\C)C(=O)C(C)CC(C)C(=O)O)O4)O3)OC3(OC(C4OC(O)(CO)C(C)CC4C)CC3C)C2C)OC1C	-	-	>100 µg/mL
CC[C@@]1(c2ccccc2)Oc2cccnc2-n2cccc2C1=O	-	1(RT)	>2 µM
C[C@H](CC[C@H](O)C(C)(O)CO)[C@H]1CC[C@@]2(C)C3=CC[C@H]4C(C)(C)C(=O)CC[C@]4(C)C3=CC[C@]12C	-	-	>250 µM
Cc1cc(Cl)c2c(c1O)C(=O)C=CC2=O	-	-	12.5 µg/mL
CC(=O)c1ccc(C)cc1NC(C(N)=O)c1c(Cl)cccc1Cl	IIIB	-	1 µM
CCNc1cccnc1N1CCN(C(=O)c2cc3cc4c(cc3[nH]2)OCO4)CC1	IIIB	-	0.44 µM